Experimental data: PubChem BioAssay AID624099 (ICCB-Longwood, 2012)
Shown is one part, drawn at random, of about 21,000 reagents tested. Of all reagents, 497 (2.4%) got an active call. 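Higher z means weaker E2 silencing; only reporter increases were scored, and knock-downs that hurt cell survival may mask genuine repressor factors.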 Reagents against one gene are numbered here.

Test: 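Host factors E2 relies on to silence an HPV18 LCR reporter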 (primary screen)
System: human C33A cervical carcinoma cells (HPV-negative) stably expressing BPV1 E2 and an HPV18 LCR luciferase reporter
Reagent: siRNA pool against human genes, 40 nM
Duration: 72 h
Measurement: 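Per-well luciferase luminescence, z-scored on each plate against the plate mean and SD with control wells left out, then averaged across three replicate plates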
Reading the numbers: mean z-score and z-score: higher = stronger reporter signal, weaker E2 silencing
Rule for the call: 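Mean z ≥ 2 together with z ≥ 2 in two or more of the three replicates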

GIMAP1 | mean z-score = -1.09; z-score, replicate A = -1.64; z-score, replicate B = -0.66; z-score, replicate C = -0.96; Outcome = inactive
PPP1R18 | mean z-score = -1.2; z-score, replicate A = -1.19; z-score, replicate B = -1.31; z-score, replicate C = -1.1; Outcome = inactive
VEZT | mean z-score = 0.59; z-score, replicate A = 0.23; z-score, replicate B = 0.48; z-score, replicate C = 1.07; Outcome = inactive
SAMSN1 #1 | mean z-score = -0.79; z-score, replicate A = -0.84; z-score, replicate B = -0.63; z-score, replicate C = -0.9; Outcome = inactive
SAMSN1 #2 | mean z-score = 0.53; z-score, replicate A = 0.21; z-score, replicate B = 0.49; z-score, replicate C = 0.88; Outcome = inactive
EAPP | mean z-score = 0.53; z-score, replicate A = 0.2; z-score, replicate B = 0.52; z-score, replicate C = 0.87; Outcome = inactive
FBN3 | mean z-score = 0; z-score, replicate A = 0; z-score, replicate B = -0.01; z-score, replicate C = 0.01; Outcome = inactive
SCAF8 | mean z-score = -0.8; z-score, replicate A = -0.81; z-score, replicate B = -0.91; z-score, replicate C = -0.69; Outcome = inactive
OTUD7B | mean z-score = -1.26; z-score, replicate A = -1.47; z-score, replicate B = -1.08; z-score, replicate C = -1.24; Outcome = inactive
INSYN1 | mean z-score = 0.33; z-score, replicate A = 0.68; z-score, replicate B = 0.12; z-score, replicate C = 0.2; Outcome = inactive
YTHDF1 | mean z-score = -1.39; z-score, replicate A = -1.28; z-score, replicate B = -1.36; z-score, replicate C = -1.54; Outcome = inactive
MPG | mean z-score = 1.1; z-score, replicate A = 0.97; z-score, replicate B = 1.3; z-score, replicate C = 1.03; Outcome = inactive
